Measured values published in article PMC5988308, “Rhodanine derivatives as potent anti-HIV and anti-HSV microbicides” (PLoS ONE, 2018).
Where “and” joins values, the source holds several entries; their conditions need not be identical. Equal entries are not always repeated.

How the values were obtained:
Type in all cases: cell-based
[1] = system: HIV-1 AD8 (CCR5-tropic strain); assay: Antiviral activity on TZM-bl cells infected with HIV-1 AD8 (CPRG assay); settings: EC50 with FBS / EC50 without
[2] = system: HIV-1 NL4.3 (CXCR4-tropic strain); assay: Antiviral activity on TZM-bl cells infected with HIV-1 NL4.3 (CPRG assay); settings: EC50 with FBS / EC50 without
Procedure: After 48 h of incubation, the medium was removed and viral infection was quantified using a β-galactosidase (CPRG) assay (Roche). Twenty thousand TZM-bl cells/well were seeded in 96-well plates in complete DMEM supplemented with 30 μg/mL DEAE-dextran (Sigma-Aldrich). […] Vehicle (0.1% dimethyl sulfoxide [DMSO])-treated cells served as a negative control. […] After 2 days, viral infection was quantified using a CPRG assay (Roche). […] To evaluate the cell toxicity of the compounds, the metabolic XTT [2,3-bis-(2-methoxy-4-nitro-5-sulfophenyl)-2H-tetrazolium-5-carboxanilide] test (Sigma-Aldrich) was performed according to the manufacturer’s instructions.

HSV-1 = HSV-1 plaque reduction assay on Vero cells
Procedure: (§1) Clinical isolates of HSV-1 and HSV-2 were kindly provided by Prof. M. Pistello, University of Pisa, Italy. HSV-1 and HSV-2 strains were propagated and titrated by plaque assay on Vero cells. A HSV-2 strain with phenotypic resistance to acyclovir was generated by serial passage in the presence of increasing concentrations of acyclovir, as previously described.
(§2) The effect of the rhodanine derivatives on HSV infection was evaluated by plaque reduction assay. Vero cells were pre-plated 24 h in advance in 24-well plates at a density of […]. Increasing concentrations of compounds were mixed with HSV-2 (MOI 0.001 pfu/cell) or HSV-2 acyclovir resistant (MOI 0.001) or HSV-1 (MOI 0.0005) or and incubated for 1 hour at 37°C. The mixtures were subsequently added to the cells, which were then incubated at 37°C for 2 h. The virus inoculum was then removed and the cells washed and overlaid with a medium containing 1.2% methylcellulose (Sigma). After further incubation at 37°C for 24 h (HSV-2 and HSV-2 R Acy) or 48 h (HSV-1), cells were fixed and stained with 0.1% crystal violet in 20% ethanol and viral plaques counted. The effective concentration producing 50% reduction (EC50) and 90% reduction (EC90) in plaque formation was determined using Prism software by comparing drug-treated with wells treated with medium and solvent. The selectivity index (SI) was calculated by dividing the CC50 by the EC50 value.
(§3) All results are presented as the mean values from three independent experiments. The EC50 values for inhibition curves were calculated by regression analysis using the software GraphPad Prism (GraphPad Software, San Diego, California, U.S.A.) by fitting a variable slope-sigmoidal dose–response curve. Acyclovir was purchased from Sigma Aldrich (Milan, Italy).

[3] = system: HSV-2 acyclovir resistant; assay: HSV-2 acyclovir resistant plaque reduction assay on Vero cells
Procedure: as §1
as §2, with “The virus inoculum was then removed and the cells washed and overlaid with a medium containing 1.2% methylcellulose (Sigma).” left out, “The effective concentration producing 50% reduction (EC50) and 90% reduction (EC90) in plaque formation was determined using Prism software by comparing drug-treated with wells treated with medium and solvent.” left out
as §3, with “Acyclovir was purchased from Sigma Aldrich (Milan, Italy).” left out

Structure (SMILES)	AD8 ratio (fold change with/without FBS) [1]	NL4-3 ratio (fold change with/without FBS) [2]	SI, HSV-1 (HSV-1)	times less active on HSV-1 with respect to HSV-2 (HSV-1)	SI, HSV-2 acyclovir resistant [3]
O=C(O)c1ccc(-c2ccc(/C=C3\SC(=S)N(c4ccc(F)c(Cl)c4)C3=O)o2)cc1O [Compound 9e, (Z)-4-(5-((3-(3-chloro-4-fluorophenyl)-4-oxo-2-thioxothiazolidin-5-ylidene)methyl)furan-2-yl)-2-hydroxybenzoic acid]	15	15			
O=C(O)c1ccc(-c2ccc(/C=C3\SC(=S)N(Cc4ccc(Cl)c(F)c4)C3=O)o2)cc1O [Compound 9f, (Z)-4-(5-((3-(4-chloro-3-fluorobenzyl)-4-oxo-2-thioxothiazolidin-5-ylidene)methyl)furan-2-yl)-2-hydroxybenzoic acid]	28	34			
O=C(O)c1ccc(-c2ccc(/C=C3\SC(=S)N(Cc4ccc(Cl)cc4)C3=O)o2)cc1O [Compound 2]	90 and 93.8	44	> 752.7	about 10 times	>10,400
O=C(O)c1ccc(-c2ccc(/C=C3\SC(=S)N(CCc4ccc(F)cc4)C3=O)o2)cc1O [Compound 9a, (Z)-4-(5-((3-(4-fluorophenethyl)-4-oxo-2-thioxothiazolidin-5-ylidene)methyl)furan-2-yl)-2-hydroxybenzoic acid]	15.3	37.8			
O=C(O)c1ccc(-c2ccc(/C=C3\SC(=S)N(CCCc4ccccc4)C3=O)o2)cc1O [Compound 9c, (Z)-2-hydroxy-4-(5-((4-oxo-3-(3-phenylpropyl)-2-thioxothiazolidin-5-ylidene)methyl)furan-2-yl)benzoic acid]	13.8	29.9			
CCc1ccc(CCN2C(=O)/C(=C/c3ccc(-c4ccc(C(=O)O)c(O)c4)o3)SC2=S)cc1 [Compound 9d, (Z)-4-(5-((3-(4-ethylphenethyl)-4-oxo-2-thioxothiazolidin-5-ylidene)methyl)furan-2-yl)-2-hydroxybenzoic acid]	5	10.3			
O=C(O)c1ccc(-c2ccc(/C=C3\SC(=S)N(Cc4ccc(F)cc4)C3=O)o2)cc1O [Compound 1]	43	64 and 64.3			
Nc1nc2c(ncn2COCCO)c(=O)[nH]1 [ACV, Acyclovir, reference compound]			4155		22.93
Cc1ccc(CCN2C(=O)/C(=C/c3ccc(-c4ccc(C(=O)O)c(O)c4)o3)SC2=S)cc1 [Compound 9b, (Z)-2-hydroxy-4-(5-((3-(4-methylphenethyl)-4-oxo-2-thioxothiazolidin-5-ylidene)methyl)furan-2-yl)benzoic acid]	8.7	20			
